The values below come from patent US9206191B2, “Indazoles for the treatment and prophylaxis of respiratory syncytial virus infection” (Hoffmann-La Roche Inc., priority 2012, dated 2015).

What is called pEC50 is the negative decadic logarithm of the EC50, by convention in mol/L.

The assay has as its system RSV Long strain. Briefly: Viral Cytopathic Effect (CPE) Assay. The assay is classed as cell-based, respiratory syncytial virus (RSV). The note with it: read-out: CPE Long EC50, cell viability after 6 days, Cell Counting kit-8. On the technique in general: Cytopathic effects are the visible damage that an infection or toxin causes in cultured cells.

pEC50: −log10 of the molar value. This is a selection: effects in other tests are not listed, and their absence says nothing.

On to `CS(=O)(=O)c1nn(Cc2nc3cc(Cl)ccc3n2CCN2CCC(O)C2)c2cnccc12` (stereo not drawn), for which the pEC50 was 8.22.
For `CS(=O)(=O)c1nn(Cc2nc3cc(Cl)ccc3n2CCN2CCOCC2)c2cnccc12` the value was 7.89; for `CS(=O)(=O)c1nn(Cc2nc3cc(Cl)ccc3n2CCN2CCC(O)CC2)c2cnccc12`, 8.46.
